Measured values reported in PMC5571939, “The nature of the Syntaxin4 C-terminus affects Munc18c-supported SNARE assembly” (PLoS ONE, 2017).

Assays:
[1] = target: T1, Munc18c:Sx4_(1-275)-His pre-formed complex (rat | mouse, UniProt Q08850 1-275; Q60770 1-592, C141S); assay: pull-down; Sx4-His proteins immobilised by C-terminal His6 on Co2+ resin, pre-complexed with de-tagged Munc18c or without it (controls); GST-cleaved SNAP23 and VAMP2 (40 μg) added together, overnight, 4°C; SDS-PAGE, Coomassie; settings: both partners purified
T1 construct: as m1; Munc18c (Munc18-3), mouse; as m10; m1 immobilised by its C-terminal His6 and complexed with m10 before SNAP23 and VAMP2 were added; also called Munc18c/Sx4-His; source: formed on TALON Co2+ beads from purified E. coli proteins; not shown: His6, C-terminal, kept; His6, N-terminal, cleaved
T1 sequence (looked up) 1: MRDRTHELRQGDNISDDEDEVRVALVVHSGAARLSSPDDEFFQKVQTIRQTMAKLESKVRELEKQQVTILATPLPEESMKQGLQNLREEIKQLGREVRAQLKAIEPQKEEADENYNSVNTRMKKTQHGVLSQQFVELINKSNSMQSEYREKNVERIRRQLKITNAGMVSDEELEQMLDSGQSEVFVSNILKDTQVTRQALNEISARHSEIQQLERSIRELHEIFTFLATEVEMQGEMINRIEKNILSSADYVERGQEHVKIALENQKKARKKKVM
T1 sequence (looked up) 2: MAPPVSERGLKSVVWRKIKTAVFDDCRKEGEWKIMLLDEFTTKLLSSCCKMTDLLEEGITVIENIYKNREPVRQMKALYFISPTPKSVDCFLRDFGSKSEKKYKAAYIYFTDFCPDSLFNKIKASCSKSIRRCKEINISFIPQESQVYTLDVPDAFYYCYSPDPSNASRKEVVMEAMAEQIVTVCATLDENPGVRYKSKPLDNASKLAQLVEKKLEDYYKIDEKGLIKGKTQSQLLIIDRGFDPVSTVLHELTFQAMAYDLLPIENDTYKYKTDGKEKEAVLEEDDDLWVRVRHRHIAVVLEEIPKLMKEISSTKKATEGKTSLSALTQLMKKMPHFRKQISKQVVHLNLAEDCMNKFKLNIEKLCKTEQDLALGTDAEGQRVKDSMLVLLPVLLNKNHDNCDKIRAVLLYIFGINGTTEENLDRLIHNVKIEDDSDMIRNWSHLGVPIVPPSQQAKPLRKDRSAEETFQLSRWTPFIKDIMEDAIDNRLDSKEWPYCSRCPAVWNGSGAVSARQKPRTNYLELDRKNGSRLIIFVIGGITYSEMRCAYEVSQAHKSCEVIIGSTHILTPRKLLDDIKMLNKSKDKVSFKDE

Sx4_(1-275)-His = target: T2, Sx4_(1-275)-His (rat, UniProt Q08850 1-275, C141S); assay: as above; settings: both partners purified
T2 construct: also called Syntaxin4 soluble cytoplasmic domain with C-terminal His6; source: E. coli, purified as described previously [17, 28]; not shown: His6, C-terminal, kept
T2 sequence (looked up): T1 sequence (looked up) 1

B1: VAMP2 (GST-cleaved) (domain or fragment)
chain: not shown
notes: VAMP2, rat, […]; also called synaptobrevin; source: purified (GSH-agarose, thrombin cleavage, MonoS cation exchange)
- binding result [1]: binds
- binding result (Sx4_(1-275)-His): binds
